Pooled drug test results. Numbers come from NIAID ChemDB, via PubChem.

Shared fields: whole-cell or culture tests

Blank or dashed fields: not listed here. Neighbouring rows are from separate reports. A number after MIC or MFC names an inhibition level or a share of isolates.

structure,method,organism,setting,strain,endpoint,value
CCNC(=O)[C@@H](NC(=O)Cc1ccccc1)[C@@H]1N[C@@H](C(=O)NCCNC(=O)[C@@H]2N[C@@H]([C@H](NC(=O)Cc3ccccc3)C(=O)NCC)SC2(C)C)C(C)(C)S1,-,Mycobacterium avium intracellulare,-,CIPT 140310054,MIC,50 µg/mL
CO[C@H]1/C=C/O[C@@]2(C)Oc3c(C)c(O)c4c(O)c(c5c(c4c3C2=O)NC2(CCN(CC(C)C)CC2)N=5)=NC(=O)/C(C)=C\C=C\[C@H](C)[C@H](O)[C@@H](C)[C@@H](O)[C@@H](C)[C@H](OC(C)=O)[C@@H]1C,-,Mycobacterium avium intracellulare,-,21 strains,MIC50,0.25 µg/mL
Clc1ccc(Nc2nnc(-c3ccncc3)o2)cc1Cl,broth dilution,Mycobacterium kansasii,14 d,My 235/80,MIC100,>125 µM
CCOc1cccc(CCNc2ncnc3ccsc23)c1,luminescence,Mycobacterium bovis BCG,-,-,MIC50,>20 µM
Cc1ccc2oc(=O)n(-c3ccc(F)cc3)c(=S)c2c1,-,Mycobacterium kansasii,21 d,My 235/80,MIC,16 µM
Fc1ccc2ncnc(NCCc3ccc(OC(F)(F)F)cc3)c2c1,luminescence,Mycobacterium bovis BCG,-,-,MIC50,>20 µM
Nc1ccc(S(=O)(=O)c2ccc(N)cc2)cc1,-,Mycobacterium avium complex,-,DW16,MIC,64 µg/mL
Fc1ccc(C2CCN(c3ccc(Nc4ncnc5cc(F)ccc45)cc3)CC2)cc1,luminescence,Mycobacterium bovis BCG,-,-,MIC50,>20 µM
O=C(NNC(=O)c1ccncc1)Nc1ccc(Cl)c(Cl)c1,broth dilution,Mycobacterium kansasii,14 d,My 6509/96,MIC100,125 µM
OCC1=C[C@H](N[C@H]2[C@@H](O)[C@@H](O)[C@@H](OC3[C@@H](O)[C@@H](O)[C@@H](O[C@H]4[C@@H](O)[C@@H](O)[C@H](O)O[C@@H]4CO)O[C@@H]3CO)O[C@@H]2CO)[C@H](O)[C@H](O)[C@@H]1O,-,Mycobacterium aurum,-,-,MIC,>25 µg/mL
COc1ccc2oc(=O)n(-c3ccccc3)c(=S)c2c1,-,Mycobacterium kansasii,21 d,6509/96,MIC,16 µM
CN[C@@H]1[C@H](O[C@H]2[C@H](O[C@H]3[C@H](O)[C@@H](O)[C@H](N=C(N)N)[C@@H](O)[C@@H]3N=C(N)N)O[C@@H](C)[C@]2(O)C=O)O[C@@H](CO)[C@H](O)[C@H]1O,-,Mycobacterium avium intracellulare,-,CIPT 140310019,MIC,>50 µg/mL
O=C(NNC(=O)c1ccncc1)Nc1ccc(Br)c(C(F)(F)F)c1,broth dilution,Mycobacterium kansasii,7 d,My 6509/96,MIC100,125 µM
Fc1ccc(-n2c(=S)oc3ccc(F)cc3c2=S)cc1,-,Mycobacterium kansasii,14 d,6509/96,MIC,8 µM
O=C(NNC(=O)c1ccncc1)Nc1cc(Cl)cc(Cl)c1,broth dilution,Mycobacterium kansasii,21 d,My 235/80,MIC100,125 µM
FC(F)(F)c1cccc(Oc2ccc(CNc3ncnc4ccsc34)cc2)c1,luminescence,Mycobacterium bovis BCG,-,-,MIC50,>50 µM
C[C@@H](O)[C@H]1C(=O)N2C(C(=O)O)=C(SCCN=CN)C[C@H]12,-,Mycobacterium avium intracellulare,-,CIPT 140310034,MIC,<5 µg/mL
O=C(NNC(=O)c1ccncc1)Nc1ccc(Br)c(F)c1,broth dilution,Mycobacterium kansasii,14 d,My 6509/96,MIC100,125 µM
CCOC(=O)C[C@@H](C1O[C@@H]2OC(C)(C)O[C@@H]2[C@H]1Oc1ccccc1)N(C(=O)Nc1ccc(Cl)cc1)C1CC1,-,Mycobacterium aurum,-,-,MIC,>25 µg/mL
COc1ccc2oc(=S)n(-c3ccc(Cl)cc3)c(=S)c2c1,-,Mycobacterium kansasii,21 d,My 235/80,MIC,32 µM
Fc1ccc2c(Nc3ccc(Oc4ccc(C(F)(F)F)cc4)cc3)nc(C(F)(F)F)nc2c1,luminescence,Mycobacterium bovis BCG,-,-,MIC50,>50 µM
O=C(NNC(=O)c1ccncc1)Nc1c(Cl)cc(Cl)cc1Cl,broth dilution,Mycobacterium kansasii,21 d,My 235/80,MIC100,>125 µM
O=C(c1ccc(CNc2ncnc3ccccc23)cc1)N1CCOCC1,luminescence,Mycobacterium bovis BCG,-,-,MIC50,>50 µM
CCCCCCCCCCCCN1C(=O)N(c2cccc(C(C)=O)c2)C(=O)C[C@H]1C1OC2OC(C)(C)OC2[C@H]1Oc1ccccc1,-,Mycobacterium aurum,-,-,MIC,>25 µg/mL
FC(F)(F)c1ccc(Oc2ccc(Nc3ccnc4ccnn34)cc2)cc1,luminescence,Mycobacterium bovis BCG,-,-,MIC50,>10 µM
CCCCCCCc1ccc(NC(=O)NNC(=O)c2ccncc2)cc1,broth dilution,Mycobacterium kansasii,7 d,My 235/80,MIC100,32 µM
FC(F)(F)Oc1ccc(Nc2ncnc3ccsc23)cc1,luminescence,Mycobacterium bovis BCG,-,-,MIC50,>50 µM
Fc1ccc2oc(=S)n(-c3ccc(Cl)c(Cl)c3)c(=S)c2c1,-,Mycobacterium kansasii,14 d,My 235/80,MIC,4 µM
FC(F)(F)Oc1ccc(Oc2ccc(Nc3ncnc4ccoc34)cc2)cc1,luminescence,Mycobacterium bovis BCG,-,-,MIC50,>20 µM
CC1(C)S[C@@H]2[C@H](NC(=O)[C@H](C(=O)[O-])c3ccsc3)C(=O)N2[C@H]1C(=O)[O-].[Na+].[Na+],-,Mycobacterium avium intracellulare,-,CIPT 140310001,MIC,35 µg/mL
Cc1ccc(CCNc2ncnc3ccccc23)cc1,luminescence,Mycobacterium bovis BCG,-,-,MIC50,>10 µM
Fc1ccc2oc(=S)n(-c3ccc(Cl)cc3)c(=S)c2c1,-,Mycobacterium kansasii,14 d,My 235/80,MIC,2 µM
CCCCCCCCCCCCN1C(=O)N(c2ccc(Cl)cc2)C(=O)C[C@H]1C1OC2OC(C)(C)OC2[C@H]1Oc1ccccc1,-,Mycobacterium aurum,-,-,MIC,>25 µg/mL
CC(C)(C)c1ccc(CCNc2ncnc3ccsc23)cc1,luminescence,Mycobacterium bovis BCG,-,-,MIC50,>20 µM

For reference, 2 entries again:

structure | method | organism | setting | strain | endpoint | value
C[C@@H](O)[C@H]1C(=O)N2C(C(=O)O)=C(SCCN=CN)C[C@H]12 | - | Mycobacterium avium intracellulare | - | CIPT 140310034 | MIC | <5 µg/mL
CN[C@@H]1[C@H](O[C@H]2[C@H](O[C@H]3[C@H](O)[C@@H](O)[C@H](N=C(N)N)[C@@H](O)[C@@H]3N=C(N)N)O[C@@H](C)[C@]2(O)C=O)O[C@@H](CO)[C@H](O)[C@H]1O | - | Mycobacterium avium intracellulare | - | CIPT 140310019 | MIC | >50 µg/mL